Test results: the supplement of paper PMC12637763
Where a chain is given by its changes, count along the chain named. Some of the results follow. Env chains of viruses from a treatment-interruption trial, translated from the printed DNA. IC50 / IC80 of two broadly neutralizing antibodies; lower = more sensitive virus; >50 µg/ml means not reached and <0.001 µg/ml is below the lowest dose. No active / inactive call.

B1: HIV-1 Env, rebound clone, antibody arm (protein)
chain: MKVKGIRKNYQHLWRWDTMLTMLLGMIMICSAVGNLWVTVYYGVPVWKDASTTLFCASDAKGYETEVHNVWATHACVPTDPSPQELVLENVTEDFNMWENNMVEQMQEDIISLWDQSLKPCVQLTPLCVTLNCTNIASGSINSSNTTGNISNSNDMKNCSFNISSGIQDRVKKDYAYFYNLDIVQITDDNSSNSYRLINCNTSVITQACPKVSFEPIPIHYCTPAGFAILKCNDKKFNGTGTCKNVSTVQCTHGIKPVVSTQLLLNGSLAEEEIVIRSENFTNNGKNIIVQLKEAVEINCTRVGNNTRKSIHMGPGRAFYANGDIIRNIRLAHCNISKARWNNTLRQIAIKLKEQYNNSETIKFTKSSGGDLEITTHMFNCGGEFFFCNTTQLFNSTWNNSTWNDTGNWNDTDETITLPCKIKQIINMWQRAGRAMYAPPISGNISCSSKITGLLLTRDGGNESQETKEVFRPGGGDMKDNWRSELYKYKVVKIEPLGVAPTKAKRRVVQREKRAVGLGALFLGFLGAAGSTMGAASITLTAQARQLMSGIVQQQNNLLKAIEAQQHLLQLTVWGIKQLQARVLAVERYLKDQQLLGIWGCSGKLICTTAVPWNTSWSNKSYDEIWEKMTWMQWEREIDNYTGIIYTLIHESQNQQDKNEQDLLALDHWASLWNWFDISNWLWYIRLFIMIVGGLVGLRIVFAVLSIVNRIRQGYSPISLQTPLPAQREPDRPGGIEEEGGERDRGRSTRLVHGSLALIWSDLSSLCIFSYHRLRDLLLIAARIVEILGRRGWELLKYWWNLLQYWSQELKNSAVSLLDAVAIAIAEGTDRVIEAAQRAWRRIRQGSEGVLL
B2: HIV-1 Env, rebound clone, antibody arm (protein)
chain: MKVKGIRKNYQHLWRWDTMLTMLLGMIMICSAVGNLWVTVYYGVPVWKDASTTLFCASDAKGYETEVHNVWATHACVPTDPSPQELVLENVTEDFNMWENNMVEQMQEDIISLWDQSLKPCVQLTPLCVTLNCTNIASGSINSSSTTGNISNSNDMKNCSFNISSGIQDRVKKDYAYFYNLDIVQITDDNSSNSYRLINCNTSVITQACPKVSFEPIPIHYCTPAGFAILKCNDKKFNGTGTCKNVSTVQCTHGIKPVVSTQLLLNGSLAEEEIVIRSENFTNNGKNIIVQLKEAVEINCTRVGNNTRKSIHMGPGRAFYANGDIIRNIRLAHCNISKARWNNTLRQIAIKLKEQYNNSKTIKFTKSSGGDLEITTHMFNCGGEFFFCNTTQLFNSTWNNSTWNDTGNWNDTDETITLPCKIKQIINMWQRAGRAMYAPPISGNISCSSKITGLLLTRDGGNDNESQETKEVFRPGGGDMRDNWRSELYKYKVVKIEPLGVAPTKAKRRVVQREKRAVGLGALFLGFLGAAGSTMGAASITLTAQARQLMSGIVQQQNNLLKAIEAQQHLLQLTVWGIKQLQARVLAVERYLKDQQLLGIWGCSGKLICTTAVPWNTSWSNKSYDEIWEKMTWMQWEREIDNYTGIIYTLIHESQNQQDKNEQDLLALDHWASLWNWFDISNWLWYIRLFIMIVGGLVGLRIVFAVLSIVNRIRQGYSPISLQTPLPAQREPDRPGGIEEEGGERDRGRSTRLVHGSLALIWSDLSSLCIFSYHRLRDLLLIAARIVEILGRRGWELLKYWWNLLQYWSQELKNSAVSLLDAVAIAIAEGTDRVIEAAQRAWRRIRQGSEGVLL
B3: HIV-1 Env, rebound clone, antibody arm (protein)
chain: B2 chain with S143G, K360N, L854I
B4: HIV-1 Env, rebound clone, antibody arm (protein)
chain: MRVMGIRKNWQGLWKWGMMLLGMLMICNATEQLWVTVYYGVPVWKEATTTLFCASDAKSYKTEAHNIWATHACVPTDPNPQEINLINVTENFNMWKNDMVEQMHEDIISLWDQSLKPCVKLTPLCVTLQCTNITINGTDRNLTAEEREEIRNCSYNVTTELKDKKEQIYSLFYRLDITPINENQGTESRNNITKYRLINCNTSVITQACPKINFDPIPIHYCAPAGFAILKCKDKGFNGTGPCKNVSSVQCTHGIKPVVSTQLLLNGSLAEEEIVIRSENITNNAKNIIVQLVTPVNISCVRPNNNTRKSIRIGPGQSFYANNAIIGGIRQAHCNVIRSEWNNTLQKVVKKLGGLLNKTTIDFKPPSGGDPEIIMHTFNCAGEFFYCNTSGLFNSTWNTTTWNNNSTQVSNGTDSNITLQCRIKQIINMWQGVGKAMYAPPIEGMITCISNITGLILTRDGGASNDSQNETLRPAGGDMRDNWRSELYKYKVVRLEPLGLAPTKARRRVVEREKRAIGLGALFLGFLGAAGSTMGAASLTLTVQARQLLSGIVQQQNNLLRAIEAQQHLLQLTVWGIKQLQARVLAVENYLKDQQLLSIWGCSGKHICTTNVPWNTSWSNKSLSQIWDNMTWNDWEREINNYTGLIYSLIEESQIQQDKNEKELLELDKWASLWNWFKITKWLWYIKIFIMIVGGLIGLRIIFAVLSVVNRVRQGYSPLSFQTLLPASRGPDRPEGIEEEGGEQGRGRSIRLVNGFSALIWDDLRNLILFLYHRLRDLILIATRTVEILGHRGWEAIKYLWNLLLYWIQELKNSAISLYDTLAIAVAGWTDRIIEVGQRIGRAVFHIPRRIRQGAERALI
B5: HIV-1 Env, rebound clone, antibody arm (protein)
chain: MRVMGIRKNWQGLWKWGMMLLGMLMICNATEQLWVTVYYGVPVWKEATTTLFCASDAKSYKTEAHNIWATHACVPTDPNPQEINLINVTENFNMWKNDMVEQMHEDIISLWDQSLKPCVKLTPLCVTLQCTNITITINGTDRNLTAEEREEIRNCSYNVTTELKDKKEQIYSLFYRLDITPINENQGTESRNTITKYKLINCNTSVITQACPKINFDPIPIHYCAPAGFAILKCKDKGFNGTGPCKNVSSVQCTHGIKPVVSTQLLLNGSLAEEEIVIRSENITNNAKNIIVQLVTPVNISCVRPNNNTRKSIRIGPGQSFYANNAIIGGIRQAHCNVSRSEWNNTLQKVVKKLGGLLNKTTIDFKPPSGGDPEIIMHTFNCAGEFFYCNTSGLFNSTWNTTTWNNNSTQVSNGTDSNITLQCRIKQIINMWQGVGKAMYAPPIEGMITCISNITGLILTRDGARNDRQNETLRPAGGDMRDNWRSELYKYKVVRLEPLGLAPTKARRRVVEREKRAIGLGALFLGFLGAAGSTMGAASLTLTVQARQLLSGIVQQQNNLLRAIEAQQHLLQLTVWGIKQLQARVLAVENYLKDQQLLSIWGCSGKHICTTNVPWNTSWSNKSLSQIWDNMTWNDWEREINNYTGLIYSLIEESQIQQDKNEKELLELDKWASLWNWFKITKWLWYIKIFIMIVGGLIGLRIIFAVLSVVNRVRQGYSPLSFQTLLPASRGPDRPEGIEEEGGEQGRGRSIRLVNGFSALIWDDLRNLILFLYHRLRDLILIATRTVEILGHRGWEAIKYLWNLLLYWIQELKNSAISLYDTLAITVAGWTDRIIEVGQRIGRAFLHIPRRIRQGAERALI
B6: HIV-1 Env, rebound clone, antibody arm (protein)
chain: B5 chain with T134N, T193N, K198R, R468N

Biological target: antibody 10-1074
Test: neutralization IC50; higher = virus less sensitive to the antibody
Experimental: (§1)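 Pseudovirus bearing the Env chain mixed with antibody, from 50 µg/ml in fivefold dilutions, on TZM-bl reporter cells, in duplicate.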

Binder | neutralization IC50 [µg/mL]
B1 | > 50
B2 | > 50
B3 | > 50
B4 | > 50
B5 | > 50
B6 | > 50

Biological target: antibody 3BNC117
Test: as above
Experimental: as §1

Binder | neutralization IC50 [µg/mL]
B1 | 5.58
B2 | > 50
B3 | > 50
B4 | 0.042
B5 | > 50
B6 | 1.56

Biological target: antibody 10-1074
Test: neutralization IC80; higher = virus less sensitive to the antibody
Experimental: as §1

Binder | neutralization IC80 [µg/mL]
B1 | > 50
B2 | > 50
B3 | > 50
B4 | > 50
B5 | > 50
B6 | > 50

Biological target: antibody 3BNC117
Test: as above
Experimental: as §1

Binder | neutralization IC80 [µg/mL]
B1 | > 50
B2 | > 50
B3 | > 50
B4 | 0.294
B5 | > 50
B6 | 19.6
